This is a selection; strong and weak results do not stand in their true shares. Calls of active or inactive are those of the source. The call rests on the fitted dose curve; in most records, active means well fitted inhibition curve with a large enough effect; inconclusive means small, poorly fitted or top-dose-only effect, or effect the other way; inactive means flat fitted curve, though single readings scatter.
Biological target: ATP-dependent 6-phosphofructokinase (Trypanosoma brucei brucei) (UniProt O15648)
Assay: qHTS Assay to Find Inhibitors of T. brucei phosphofructokinase; further: nearly all actives have a fitted effect of over 60% in size;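 on activity, negative = inhibition: 0% = uninhibited 1x PFK enzyme wells and -100% = no-enzyme wells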
Settings: T. brucei PFK, ADP-Glo luminescence; series mostly up to 57.5 µM; activity, negative = inhibition: at the top concentration
Method in brief: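 PFK 1.25 nM, F6P 0.5 mM, ATP 0.1 mM, 0.1 M TEA pH 8.0, 5 mM MgCl2, 0.01% Tween20, 0.1% BSA; 45 min RT. ADP-Glo readout. qHTS titration up to 57 uM; curves fitted, compounds curve-classed.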
Potency means the concentration at half of the fitted maximal effect.

The chains behind the UniProt entries cited, without tags or fusion partners. Where a name states a change or a piece, a line headed by the entry shows the natural chain unless it says otherwise.
UniProt O15648: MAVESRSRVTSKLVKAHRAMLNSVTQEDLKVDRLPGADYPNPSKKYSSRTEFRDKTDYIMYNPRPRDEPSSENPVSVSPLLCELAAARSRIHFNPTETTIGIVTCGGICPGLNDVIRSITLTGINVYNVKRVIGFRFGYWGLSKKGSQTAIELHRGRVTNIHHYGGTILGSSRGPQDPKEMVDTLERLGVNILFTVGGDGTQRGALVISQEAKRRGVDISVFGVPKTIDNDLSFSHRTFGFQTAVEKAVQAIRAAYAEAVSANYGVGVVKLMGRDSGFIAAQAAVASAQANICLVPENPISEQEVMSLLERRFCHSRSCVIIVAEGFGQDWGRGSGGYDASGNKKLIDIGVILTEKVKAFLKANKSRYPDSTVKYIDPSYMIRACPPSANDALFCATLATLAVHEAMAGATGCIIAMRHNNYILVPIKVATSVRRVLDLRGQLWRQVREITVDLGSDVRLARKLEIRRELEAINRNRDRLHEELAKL

| Compound | activity, negative = inhibition | Potency |
| --- | --- | --- |
| O=[As](O)(c1cccc(O)c1)c1cccc(O)c1 | inactive: 3.98% |  |
| CCCOP(=S)(Nc1nc(N)cc(=O)[nH]1)OCCC | inactive: -19.6% |  |
| Cc1ccc(NCCc2c([N+](=O)[O-])cc([N+](=O)[O-])cc2[N+](=O)[O-])cc1 | inactive: 10.6% |  |
| COc1cc(C2NCCC3(OCCO3)C2(C)C)cc(OC)c1OC (stereo unspecified) | inactive: 0.549% |  |
| CCOP(=O)(Nc1cccc2ccccc12)OCC | inactive: -4.82% |  |
| CS(=O)(=O)c1cc([N+](=O)[O-])c2no[n+]([O-])c2c1 | inactive: -4.76% |  |
| CCOP1(=S)c2c(C)nn(CCC#N)c2N=C(c2ccccc2F)N1C (stereo unspecified) | inactive: -0.694% |  |
| O=P(Nc1nccs1)(c1ccccc1)c1nc2ccccc2s1 (stereo unspecified) |  | active: 26.9 µM |
| O=P(Nc1nccs1)(Oc1ccccc1)Oc1ccccc1 | inactive: -1.02% |  |
| O=C(O)COc1ccc([As](=O)(O)O)cc1[N+](=O)[O-] | inactive: 16.5% |  |
| Nc1ccccc1[As](=O)(O)c1ccccc1 | inactive: 0.468% |  |
| NC(=O)Nc1ccc([As](=O)(O)O)cc1 | inactive: -1.88% |  |
| O=[N+]([O-])c1ccc2c(c1)nnn2O | inactive: 0.376% |  |
| N#CCCN(C(=O)COC(=O)C(O)(c1ccccc1)c1ccccc1)c1ccc(F)cc1 | inactive: 4.23% |  |
| CCOP1(=S)c2c(C)nn(CCC#N)c2N=C(c2ccc(F)cc2)N1C (stereo unspecified) | inactive: 6.18% |  |
| CN(C(=O)Cc1ccccc1)[C@@H]1CC[C@]2(CCCO2)C[C@H]1N1CCCC1 | inactive: 0.616% |  |
| Cc1nn(-c2ccccc2)c2c1P(=O)(N1CCOCC1)N(C)C(c1ccccc1)=N2 (stereo unspecified) | inactive: 4.87% |  |
| Cc1ccc(C(=O)OC2CN3CCC2CC3)cc1 (stereo unspecified) | inactive: 4.25% |  |
| CC1CCC(C(C)C)C(OP(=O)(Nc2ccccn2)c2ccccc2)C1 (stereo unspecified) | inactive: 7.13% |  |
| O=C(/C=C/c1ccccc1)OC1CN2CCC1CC2 (stereo unspecified) | inactive: -1.34% |  |
| CN(C)C1(CNC(=O)c2ccc(S(C)(=O)=O)cc2)CCCCC1 | inactive: -4.5% |  |
| O=P1(Nc2ncccn2)COc2ccccc2OC1 | inactive: 18% |  |
| NS(=O)(=O)c1cccc(NC(=O)COC(=O)C(O)(c2ccccc2)c2ccccc2)c1 | inactive: -0.0821% |  |

| Compound | activity, negative = inhibition | Potency |
| --- | --- | --- |
| O=P1(Nc2ccc(Br)cn2)COc2ccccc2OC1 | inactive: -28.7% |  |
| O=[As](O)(c1cccs1)c1cccs1 | inactive: 0.894% |  |
| Cc1ccc(OCC(=O)OC2CN3CCC2CC3)cc1 (stereo unspecified) | inactive: -0.0306% |  |
| Nc1cccc([As](=O)(O)c2ccccc2)c1 | inactive: 2.69% |  |
| CCOP(=O)(Nc1ccc(C)cn1)OCC | inactive: 0.994% |  |
| CCC1=CC2Cc3nc4ccc(Cl)cc4c(N)c3C(C1)C2 (stereo unspecified) | inactive: -0.238% |  |
| O=P1(Nc2ccccn2)COc2ccccc2OC1 | inactive: -2.78% |  |
| CCOP(=O)(NC(=NC(C)c1ccccc1)NC(C)c1ccccc1)OCC (stereo unspecified) | inactive: -0.027% |  |
| Clc1n[nH]nc1-c1nn[nH][15n]1 | inactive: 4.87% |  |
| CC(C)(C)C(=O)NC(Sc1ncccn1)C(Cl)(Cl)Cl (stereo unspecified) | inactive: 2.26% |  |
| COc1ccccc1CNC(=O)COC(=O)C(O)(c1ccccc1)c1ccccc1 | inactive: -6.79% |  |
| O=[As](O)(c1ccccc1Br)c1ccccc1Br | inactive: -0.425% |  |
| CN(C(=O)Cc1ccc(Cl)c(Cl)c1)[C@@H]1CCCC[C@H]1N1CCCC1 | inactive: -7.99% |  |
| CC(C)/C=N\N=C(\N)N[N+](=O)[O-] | inactive: 2.52% |  |
| O=P(Nc1nccs1)(c1ccccc1)c1ccccc1 | inactive: -15.2% |  |
| CC(C)C(=O)NC(Sc1ccccc1)C(Cl)(Cl)Cl (stereo unspecified) | inactive: -7.9% |  |
| c1nnnn1CCn1cnnn1 | inactive: -0.315% |  |
| CN(C)C1(CNC(=O)c2ccc(Cl)c(S(N)(=O)=O)c2)CCCCC1 | inactive: 0% |  |
| O=P(Nc1ccccn1)(c1ccc(Br)cc1)c1ccc(Br)cc1 | inactive: -4.91% |  |
| O=P(Nc1nc2ccccc2s1)(c1ccccc1)c1ccccc1 | inactive: -9.64% |  |
| C[C@H]1OP(=O)(Oc2ccccc2)[C@H](O)[C@H](O)[C@H]1N=[N+]=[N-] (stereo partly specified) | inactive: 24.1% |  |
| O=[N+]([O-])c1ncn(CCn2cnc([N+](=O)[O-])n2)n1 | inactive: 1.74% |  |
| CC(=O)NC(SC(=S)N(C)C)C(Cl)(Cl)Cl (stereo unspecified) | inactive: -0.419% |  |

| Compound | activity, negative = inhibition | Potency |
| --- | --- | --- |
| O=[N+]([O-])c1ccc(O)c(/C=N/Nc2ccc([N+](=O)[O-])cc2[N+](=O)[O-])c1 | inactive: 4.12% |  |
| O=[As](O)(c1ccccc1)c1ccc(O)cc1 | inactive: 1.02% |  |
| Nc1ccc([As](=O)(O)c2ccc([N+](=O)[O-])cc2)cc1 | inactive: -2.17% |  |
| C(Cc1nn[nH]n1)Cc1nn[nH]n1 | inactive: 3.97% |  |
| O=C(OC1CN2CCC1CC2)c1cccc(Cl)c1 (stereo unspecified) | inactive: 1.66% |  |
| O=C(NC1CCS(=O)(=O)C1)NP(=S)(Oc1ccccc1)Oc1ccccc1 (stereo unspecified) | inactive: -3.09% |  |
| CCNC(=S)/N=C(\N)N[N+](=O)[O-] | inactive: -1.36% |  |
| c1ccc(-c2nn[nH]n2)c(-c2nn[nH]n2)c1 | inactive: -24.7% |  |
| CCOC(=O)NC(Sc1ccccc1)C(Cl)(Cl)Cl (stereo unspecified) | inactive: -2.76% |  |
| Cc1ccc(NP(=O)(Oc2cccc(C)c2)Oc2cccc(C)c2)nc1 | inactive: -9.86% |  |
| COC(=O)c1cc2c(s1)N=C(c1ccccc1)N(C)P2(=O)N1CCOCC1 (stereo unspecified) | inactive: -3.94% |  |
| Cc1ccc(OP(=O)(Nc2ccccn2)Oc2ccc(C)cc2)cc1 | inactive: 3.23% |  |
| CC(=O)NC(SC(=S)N(CC(C)C)CC(C)C)C(Cl)(Cl)Cl (stereo unspecified) | inactive: -7.63% |  |
| O=C(OC1CN2CCC1CC2)c1ccccc1 (stereo unspecified) | inactive: 1.8% |  |
| CCC(=O)N1C2C3N(C(=O)CC)C1C1N(C(=O)CC)C(C(N1C(=O)CC)N3C(=O)CC)N2C(=O)CC | inactive: 8.05% |  |
| Cc1ccccc1OP(=O)(Nc1ccccn1)Oc1ccccc1C | inactive: -3.63% |  |
| CC(NC(=O)COC(=O)C(O)(c1ccccc1)c1ccccc1)c1ccccc1 (stereo unspecified) | inactive: 0% |  |
| CN(C)C(=O)Oc1noc2ccccc12 | inactive: -3.75% |  |
| O=c1c2cc([N+](=O)[O-])ccc2[nH]c2c([N+](=O)[O-])cc([N+](=O)[O-])cc12 | inactive: -2.98% |  |
| O=P1(Nc2nc3ccc(Cl)cc3s2)COc2ccccc2O1 (stereo unspecified) | inactive: 2.32% |  |
| CCOc1ccc(C2=NCC(CBr)S2)cc1 (stereo unspecified) | inactive: 1.66% |  |
| CC(C)(C)C(=O)NC(Sc1ccccc1)C(Cl)(Cl)Cl (stereo unspecified) | inactive: -1.56% |  |
| CC(=O)c1ccc(N2CC2c2ccncc2)cc1 (stereo unspecified) | inactive: 2.33% |  |

| Compound | activity, negative = inhibition | Potency |
| --- | --- | --- |
| Cc1ccccc1CN(C)C(=O)COC(=O)C(O)(c1ccccc1)c1ccccc1 | inactive: -4.5% |  |
| C[C@@H]1C=CCP(=O)(Oc2ccccc2)O1 (stereo partly specified) | inactive: 0.221% |  |
| C[C@H]1OP(=O)(Oc2ccccc2)C[C@@H]2O[C@@H]21 (stereo partly specified) | inactive: 19.1% |  |
| CC(=O)Nc1ccc([As](=O)(O)O)c(O)c1 | inactive: -3.1% |  |
| CC(=O)Nc1ccc(Oc2c([N+](=O)[O-])cc([N+](=O)[O-])cc2[N+](=O)[O-])cc1 | inactive: -9.7% |  |
| NC(=O)c1cc([N+](=O)[O-])cc([N+](=O)[O-])c1N | inactive: -5.12% |  |
| Cc1ccc(N/C(=N/P(=O)(N2CCOCC2)N2CCOCC2)N2CCOCC2)cc1 | inactive: -12.5% |  |
| COc1ccccc1OP(=O)(Nc1ccc(C)cn1)Oc1ccccc1OC | inactive: 3.53% |  |
| Cc1ccc(OP(=O)(Nc2nccs2)Oc2ccc(C)cc2)cc1 | inactive: 3.67% |  |
| Clc1ccc(Cl)c(NC2=NCC(CBr)S2)c1 (stereo unspecified) | inactive: -0.549% |  |
| CN1CCCC(OC(=O)C(c2ccccc2)c2ccccc2)C1 (stereo unspecified) | inactive: -1.89% |  |
| CC(C)CC(=O)NC(Sc1ccc(Cl)cc1)C(Cl)(Cl)Cl (stereo unspecified) | inactive: -0.406% |  |
| Nc1cc(N)c2nonc2c1[N+](=O)[O-] | inactive: -3.36% |  |
| Oc1ccccc1CNc1ccccn1 | inactive: 1.66% |  |
| Cc1c2non([O-])c-2c(C)[n+](=O)[n+]1[O-] | inactive: -3.55% |  |
| O=C(NC(Sc1ccncn1)C(Cl)(Cl)Cl)c1ccccc1 (stereo unspecified) | inactive: -1.94% |  |
| O=C(O)c1ccccc1[As](=O)(O)O | inactive: -6.57% |  |
| CC(=O)Nc1ccc([As](=O)(O)O)cc1 | inactive: -0.938% |  |
| O=P(Nc1nc2ccc(Cl)cc2s1)(c1ccccc1)c1ccccc1 | inactive: -3.04% |  |
| CCOP(=O)(Nc1ccccc1)OCC |  | inactive |
| Cc1cc(SC(NC(=O)c2ccc(F)cc2)C(Cl)(Cl)Cl)ncn1 (stereo unspecified) | inactive: -8.24% |  |
| Cc1ccc(NP(=O)(Oc2ccccc2F)Oc2ccccc2F)nc1 | inactive: 2.15% |  |
| O=[N+]([O-])c1cc([N+](=O)[O-])c(CCN2CCOCC2)c([N+](=O)[O-])c1 | inactive: -3.65% |  |

| Compound | activity, negative = inhibition | Potency |
| --- | --- | --- |
| CCN(N=Nc1nonc1N)c1nonc1N | inactive: 1.91% |  |
| Nc1cccc2ccc([As](=O)(O)O)cc12 | inactive: 1.99% |  |
| O=C(Nc1cc([As](=O)(O)O)ccc1O)c1ccccc1 | inactive: -3.71% |  |
| CC(C)(C)C(=O)NC(Sc1ccncn1)C(Cl)(Cl)Cl (stereo unspecified) | inactive: -6.81% |  |
| O=[N+]([O-])c1ncn(CCn2ncnc2[N+](=O)[O-])n1 | inactive: -2.4% |  |
| O=[N+]([O-])c1cccc(NC2=NCC(CBr)S2)c1 (stereo unspecified) | inactive: 3.42% |  |
| O=C(O)CNc1ccc([As](=O)(O)O)cc1 | inactive: -5.42% |  |
| COc1ccc(C2=NCC(CBr)S2)cc1 (stereo unspecified) | inactive: -9.4% |  |
| CC(=O)N1C2C3N(C(C)=O)C1C1N(C(C)=O)C(C(N1C(C)=O)N3C(C)=O)N2C(C)=O | inactive: 1.11% |  |
| O=[N+]([O-])c1cccc2n[nH]nc12 | inactive: -0.896% |  |
| Cc1ccc(NP(=O)(Oc2ccccc2)Oc2ccccc2)nc1 | inactive: -1.8% |  |
| O=[N+]([O-])c1cc([N+](=O)[O-])c(CCNc2ccccc2)c([N+](=O)[O-])c1 | inactive: 1.09% |  |
| CCc1nc2c(n1)c1c(non1O)c1c2no[n+]1[O-] | inactive: -3.08% |  |
| Nc1ccc([As](=O)(O)c2ccc(N)cc2)cc1 | inactive: -4.07% |  |
| C[N+]1=C2C=CC=CC=C2SC12C([N+](=O)[O-])=CC([N+](=O)[O-])=C[C-]2[N+](=O)[O-] (stereo unspecified) | inactive: -5.99% |  |
| CCN(/C(=N/P(=O)(N1CCOCC1)N1CCOCC1)N1CCOCC1)c1ccc(OC)cc1 | inactive: -1.16% |  |
| CC(C)=N/N=C(\N)N[N+](=O)[O-] | inactive: -7.37% |  |
| CN(C)C(=O)OCCc1n(C)cc[n+]1C | inactive: 2.59% |  |
| CC1CCN(C(=O)Oc2c(Cl)cc(Cl)c3cccnc23)CC1 | inactive: 3.07% |  |

From PubChem BioAssay AID485367 (National Center for Advancing Translational Sciences (NCATS), 2010)
